Anti-infective test results gathered from many reports (values: NIAID ChemDB through PubChem).

Shared fields: growth or infection tests; species: HIV-1; cells: CEM; endpoint: EC50

Blank or dashed fields: not listed here. ECn: concentration that inhibits the pathogen or its effect by n%. Conditions beyond the fields shown may differ between rows.

| compound | strain or isolate | mutations | method | value |
|---|---|---|---|---|
| O=c1[nH]cnc2c1ncn2[C@H]1CC[C@@H](CO)O1 | IIIB | - | syncytia | 5 ± 1.4 µM |
| CC(C)=CCN1Cc2cc(Cl)cc3[nH]c(=S)n(c23)C[C@@H]1C | IIIB | - | syncytia | 0.02 µg/mL |
| Cc1cn([C@H]2C[C@H](N=[N+]=[N-])[C@@H](CO)O2)c(=O)[nH]c1=O | IIIB | - | cytopathic effect | 0.0021 µM |
| CC(C)=CCN1Cc2cc(Cl)cc3[nH]c(=S)n(c23)C[C@@H]1C | IIIB | RT-Y188C | cytopathic effect / XTT | 3 µM |
| CCc1cc(NCc2nc3c(Cl)ccc(Cl)c3o2)c(=O)[nH]c1C | IIIB-Nevirapine(0.1)(RT-Y181C) | RT-Y181C | syncytia | 0.84 µg/mL |
| Cc1cn([C@@H]2O[C@H](CO[Si](C)(C)C(C)(C)C)C3(OS(=O)(=O)C=C3N)[C@H]2O[Si](C)(C)C(C)(C)C)c(=O)n(C)c1=O | IIIB | RT-V179D | syncytia | 0.097 ± 0.055 µM |
| CC(C)Nc1cccnc1N1CCN(C(=O)c2cc3cc(NS(C)(=O)=O)ccc3[nH]2)CC1 | IIIB | - | cytopathic effect | 0.003 µg/mL |
| Fc1cccc(F)c1C1SCc2nc3ccccc3n21 | IIIB | RT-Y181C | cytopathic effect / XTT | 13.87 µM |
| Cc1cn([C@@H]2O[C@H](CO[Si](C)(C)C(C)(C)C)C3(OS(=O)(=O)C=C3N)[C@H]2O[Si](C)(C)C(C)(C)C)c(=O)n(C)c1=O | IIIB-Pyridinone(0.1)(RT-V179N | RT-V179N | syncytia | 0.22 µg/mL |
| CC(C)=CCOc1cc(NC(=S)c2ccsc2C)ccc1Cl | IIIB | - | cytopathic effect | 0.003 µg/mL |
| CCNc1cccnc1N1CCN(C(=O)c2cc3cc(OC)ccc3[nH]2)CC1 | IIIB | - | syncytia | 0.03 µg/mL |
| Cc1cn([C@@H]2O[C@H](CO[Si](C)(C)C(C)(C)C)C3(OS(=O)(=O)C=C3N)[C@H]2O[Si](C)(C)C(C)(C)C)c(=O)n(C)c1=O | IIIB | RT-K103N | cytopathic effect / XTT | 0.22 µM |
| CC[C@H]1C(=O)Nc2ccc(F)cc2N1C(=O)OC(C)C | Y-1 (RT-K103N) | RT-K103N | cytopathic effect | 0.051 µg/mL |
| Cc1occc1C(=S)Nc1ccc(Cl)c(/C=N/OC(C)(C)C)c1 | IIIB | RT-V179D | syncytia | 0.17 ± 0.09 µM |

The last 2 rows once more:

compound,strain or isolate,mutations,method,value
CC[C@H]1C(=O)Nc2ccc(F)cc2N1C(=O)OC(C)C,Y-1 (RT-K103N),RT-K103N,cytopathic effect,0.051 µg/mL
Cc1occc1C(=S)Nc1ccc(Cl)c(/C=N/OC(C)(C)C)c1,IIIB,RT-V179D,syncytia,0.17 ± 0.09 µM